# Values of other authors as cited in article PMC9435674, “Delineating the activity of the potent nicotinic acetylcholine receptor agonists (+)-anatoxin-a and (−)-hosieine-A” (2022).
# Where two headings read alike, the source gives them in different places.
# Key:
# Torpedo electric organ [1] = details: radioligand competition assay, ref Swanson et al., 1986; cited from earlier work
# Torpedo electric organ [2] = details: patch-clamp electrophysiology; ref Swanson et al., 1986; cited from earlier work
# [3] = test system: muscle and neuronal nAChRs; details: agonist of muscle and neuronal nAChRs; ref Spivak et al., 1980; Koskinen & Rapoport, 1985; Rodgers et al., 2018; cited from earlier work
# [4] = test system: human α4β2 and rat α7 subtypes; details: range over human α4β2 and rat α7 subtypes; ref Gohlke et al., 2002; Mazurov et al., 2012; cited from earlier work
structure (smiles),measurement,setting,value
"CC(=O)C1=CCCC2CCC1N2 (single isomer, unassigned)",IC50,Torpedo electric organ [1],85 nM
same,IC50,Torpedo electric organ [2],32 nM
same,potency of the (+)-enantiomer relative to the (−)-enantiomer,[3],around 150 times
same,Ki,[4],1 to 90 nM
